# How the values were obtained:
# Experiment in all cases: SEC-MALS; purified P constructs from E. coli; conditions not given
# [1] = test system: PΔCTD (RABV P, PV strain, amino acids 195-296 deleted, StrepTagII), rabies virus (PV strain), P06747 1-297
# [2] = test system: PΔNTD (RABV P, PV strain, C261S, amino acids 1-52 deleted, StrepTagII), rabies virus (PV strain), P06747 53-297
# [3] = test system: recombinant RABV P (PV strain), C261S, with C-terminal StrepTagII, rabies virus (PV strain), P06747 1-297
substance,measurement,setting,value
"PΔCTD (RABV P, PV strain, amino acids 195-296 deleted, StrepTagII) Δ195-296",stoichiometry N,[1],2
"PΔNTD (RABV P, PV strain, C261S, amino acids 1-52 deleted, StrepTagII)",stoichiometry N,[2],2
"recombinant RABV P (PV strain), C261S, with C-terminal StrepTagII",stoichiometry N,[3],2

# Reference: article PMC9767369, “Properties of rabies virus phosphoprotein and nucleoprotein biocondensates formed in vitro and in cellulo” (2022)
